Pooled drug test results. Numbers come from NIAID ChemDB, via PubChem.

All rows: growth or infection tests; organism: Staphylococcus aureus; endpoint: MIC90

Two numbers with a dash give a range or band.

structure	strain or isolate	value
CC[C@H]1OC(=O)[C@H](C)C(=O)[C@H](C)[C@@H](O[C@@H]2O[C@H](C)C[C@H](N(C)C)[C@H]2O)[C@@]2(C)C[C@@H](C)C(=NC(C)=O)[C@H](C)C(OC/C(=N\OCC#Cc3cccc(N)n3)CO2)[C@]1(C)O	25 strains	16 µg/mL
CCCC[C@H](CC(=O)NO)C(=O)N1CCC[C@H]1C(=O)NC	25 strains	8 µg/mL
CC[C@H]1OC(=O)[C@@](C)(F)C(=O)[C@H](C)[C@@H](O[C@@H]2O[C@H](C)C[C@H](N(C)C)[C@H]2O)[C@@]2(C)C[C@@H](C)C(=NC(C)=O)[C@H](C)[C@@H](OC/C(=N\OCc3ccc(-n4cccn4)nc3)CO2)[C@]1(C)O	25 strains	32 µg/mL
CO/N=C1\CN(c2nc3c(cc2F)c(=O)c(C(=O)O)cn3C2CC2)CC1CN	38 isolates (methicillin-resistant)	32 µg/mL
COc1c(N2C[C@@H]3CCCN[C@@H]3C2)c(F)cc2c(=O)c(C(=O)O)cn(C3CC3)c12	224 isolates (methicillin-resistant)	3.73 µg/mL
CC(C)(C)n1cc(C(=O)O)c(=O)c2cc(F)c(N3C[C@H]4C[C@@H]3CN4)nc21	30 strains (methicillin-susceptible)	0.25 µg/mL
Cc1c(NCCO)c(F)cc2c(=O)c(C(=O)O)cn(-c3cc(N)c(F)cc3F)c12	27 isolates (methicillin-resistant)	0.03 µg/mL
CN(C)CC(=O)Nc1cc(N(C)C)c2c(c1O)C(O)=C1C(=O)[C@]3(O)C(O)=C(C(N)=O)C(=O)[C@@H](N(C)C)[C@@H]3C[C@@H]1C2	Oxacillin-resistant	0.03–1 µg/mL
CC[C@H]1OC(=O)[C@H](C)C(=O)[C@H](C)[C@@H](O[C@@H]2O[C@H](C)C[C@H](N(C)C)[C@H]2O)[C@](C)(OC)C[C@@H](C)C(=O)[C@H](C)[C@H]2N(CCCCn3cnc(-c4cccnc4)c3)C(=O)O[C@]12C	25 strains	>64 µg/mL
COc1c(N2CCNC(C)C2)c(F)cc2c(=O)c(C(=O)O)cn(C3CC3)c12	30 strains (methicillin-resistant)	0.2 µg/mL
C[C@H]1COc2c(N3CCN(C)CC3)c(F)cc3c(=O)c(C(=O)O)cn1c23	46 isolates (methicillin-resistant)	0.5 µg/mL
COc1c(N2CCNC(C)C2)c(F)cc2c(=O)c(C(=O)O)cn(C3CC3)c12	methicillin sensitive (68 strains)	0.12 µg/mL
C[C@H]1COc2c(N3CCN(C)CC3)c(F)cc3c(=O)c(C(=O)O)cn1c23	Methicillin-resistant	0.5–8 µg/mL
CC(C)(C)n1cc(C(=O)O)c(=O)c2cc(F)c(N3C[C@H]4C[C@@H]3CN4)nc21	61 strains (methicillin-susceptible)	0.13 µg/mL

MIC50, MIC90 and the like: level of inhibition, or share of isolates inhibited. Rows are shuffled and stem from different studies.